From publication PMC7761982, “FDA-Approved Drugs with Potent In Vitro Antiviral Activity against Severe Acute Respiratory Syndrome Coronavirus 2” (Pharmaceuticals, 2020) come the findings set out here.

The subject of this data set is NRC-03-nhCoV. It is filed as cell-based, SARS-CoV-2.
[1] abbreviates: selectivity index, antiviral activity relative to cellular toxicity (CC50/IC50).

Structures can show the parent of a compound that is named as a salt. Where two headings read alike, the source gives them in different places.

With `O=C1CN(/N=C/c2ccc([N+](=O)[O-])o2)C(=O)N1` [Nitrofurantoin], for the setting “ratio CC50 / IC50”, the SI was 36.94.
The molecule `O=C(Nc1ccc([N+](=O)[O-])cc1Cl)c1cc(Cl)ccc1O` [Niclosamide] came in with an SI under setting [1] of 1278.81.
For the molecule `CO/N=C(\C(=O)N[C@@H]1C(=O)N2C(C(=O)O)=C(CSc3nc(=O)c(=O)[nH]n3C)CS[C@H]12)c1csc(N)n1` [Ceftriaxone], the SI (ratio CC50 / IC50) worked out at 27.63.
In the case of `C[C@@H]1C[C@H]2[C@@H]3CCC4=CC(=O)C=C[C@]4(C)[C@@]3(F)[C@@H](O)C[C@]2(C)[C@@]1(O)C(=O)CO` [Dexamethasone], the SI (ratio CC50 / IC50) was 15.51.
With `CO/N=C(\C(=O)N[C@@H]1C(=O)N2C(C(=O)O)=C(COC(C)=O)CS[C@H]12)c1csc(N)n1` [Cefotaxime], for the setting “ratio CC50 / IC50”, the SI is on record as 73.85.
Same read-out and setting: the value for `C[C@]12CCC(=O)C=C1CC[C@@H]1[C@@H]2[C@@H](O)C[C@@]2(C)[C@H]1CC[C@]2(O)C(=O)CO` [Hydrocortisone] was 87.10; that for `CC(C)Cc1ccc(C(C)C(=O)O)cc1` (stereo not drawn) [Ibuprofen] was 13.14; that for `C[C@@H]1[C@H](O)[C@@H](C)/C=C/C=C/CC/C=C/C=C/C=C/C=C/C(O[C@H]2O[C@H](C)[C@@H](O)[C@H](N)[C@@H]2O)CC2O[C@](O)(CC(O)C(O)CCC(O)CC(O)CC(O)CC(=O)O[C@H]1C)CC(O)C2C(=O)O` (stereo partly drawn) [Nystatin] was 1.14.
On the same count and under the same terms, the value for `O=C(c1ccccc1)c1ccc2n1CCC2C(=O)O` (stereo not drawn) [Ketorolac Tromethamine] was 13.31.
Consider `CC(=O)Nc1ccc(O)cc1` [Paracetamol], for which, where the note is “ratio CC50 / IC50”, the SI is reported as less than 1.
In the case of `CC(=O)Oc1ccccc1C(=O)O` [Acetyl Salicylic acid “Aspirin”, Acetyl Salicylic acid], the SI (ratio CC50 / IC50) was determined as 103.21.
In turn, `CC(=O)Oc1ccccc1C(=O)Nc1ncc([N+](=O)[O-])s1` [Nitazoxanide] returned an SI under setting [1] of 515.62.
In the case of Neomycin, the SI (ratio CC50 / IC50) was found to be 45.98.
For `CC(=O)NC[C@H]1CN(c2ccc(N3CCOCC3)c(F)c2)C(=O)O1` [Linezolid], for the setting “ratio CC50 / IC50”, the SI is 50.1.
For the molecule `CCN1CCN(C(=O)N[C@@H](C(=O)N[C@@H]2C(=O)N3C(C(=O)O)=C(CSc4nnnn4C)CS[C@H]23)c2ccc(O)cc2)C(=O)C1=O` [Cefoperazone], under “ratio CC50 / IC50”, the SI amounted to 5.58.
Consider `COc1ccc2c(c1)c(CC(=O)O)c(C)n2C(=O)c1ccc(Cl)cc1` [Indomethacin], for which the SI (ratio CC50 / IC50) was 78.93.
Turning to `c1ccc2c(CC3=NCCN3)cccc2c1` [Naphazoline], the SI (ratio CC50 / IC50) amounted to 66.82.
Same read-out and setting: next, `CC(C)(O/N=C(\C(=O)N[C@@H]1C(=O)N2C(C(=O)[O-])=C(C[n+]3ccccc3)CS[C@H]12)c1csc(N)n1)C(=O)O` [Ceftazidime]: 120.37; `Cc1c(N(C)CS(=O)(=O)[O-])c(=O)n(-c2ccccc2)n1C.[Na+]` [Metamizole sodium]: 63.29; `O=C(O)Cc1ccccc1Nc1c(Cl)cccc1Cl` [Diclofenac sodium]: 1.44.
The same measure, in the same setting: next, `C[C@H]1C[C@@H]2[C@H]([C@@H](O)C[C@@]3(C)[C@H]2CC[C@]3(O)C(=O)CO)[C@@]2(C)C=CC(=O)C=C12` [Methylprednisolone]: 36.97; `CCC(=O)O[C@]1(C(=O)SCF)[C@H](C)C[C@H]2[C@@H]3C[C@H](F)C4=CC(=O)C=C[C@]4(C)[C@@]3(F)[C@@H](O)C[C@@]21C` [Fluticasone Propionate]: 18.74.
Still for that read-out and setting: the value for `CC(C)C(=O)OCC(=O)[C@@]12O[C@H](C3CCCCC3)O[C@@H]1C[C@H]1[C@@H]3CCC4=CC(=O)C=C[C@]4(C)[C@H]3[C@@H](O)C[C@@]12C` [Ciclesonide] was 28.73; that for `Cc1cnc(NC(=O)C2=C(O)c3ccccc3S(=O)(=O)N2C)s1` [Meloxicam] was 21.21; that for `NCC[C@H](O)C(=O)N[C@@H]1C[C@H](N)[C@@H](O[C@H]2O[C@H](CN)[C@@H](O)[C@H](O)[C@H]2O)[C@H](O)[C@H]1O[C@H]1O[C@H](CO)[C@@H](O)[C@H](N)[C@H]1O.O=S(=O)(O)O.O=S(=O)(O)O` [Amikacin sulphate] was 146.10.
On to `C[C@H]1c2cccc(O)c2C(=O)C2=C(O)[C@]3(O)C(=O)C(C(N)=O)=C(O)[C@@H](N(C)C)[C@@H]3[C@@H](O)[C@@H]21` [Doxycycline], for which the SI (ratio CC50 / IC50) was 124.73.
As to `C[C@H]1COc2c(N3CCN(C)CC3)c(F)cc3c(=O)c(C(=O)O)cn1c23` [Levofloxacin], where the note is “ratio CC50 / IC50”, the SI came to 155.78.
Consider `CN(C)CCC(c1ccc(Cl)cc1)c1ccccn1` (stereo not drawn) [Chlorpheniramine maleate], for which the SI (ratio CC50 / IC50) was 129.35.
The same measure, in the same setting: next, `COc1c(N2C[C@@H]3CCCN[C@@H]3C2)c(F)cc2c(=O)c(C(=O)O)cn(C3CC3)c12` [Moxifloxacin]: 183.32; `O=C(N[C@H](CO)[C@H](O)c1ccc([N+](=O)[O-])cc1)C(Cl)Cl` [Chloramphenicol]: 2.00; `CC1(C)S[C@@H]2[C@H](NC(=O)[C@H](N)c3ccc(O)cc3)C(=O)N2[C@H]1C(=O)O` [Amoxicillin]: 38.12.
Regarding `CN1C(C(=O)Nc2ccccn2)=C(O)c2ccccc2S1(=O)=O` [Piroxicam], the SI (ratio CC50 / IC50) stood at 218.64.
For `OCc1cc(C(O)CNCCCCCCOCCCCc2ccccc2)ccc1O` (stereo not drawn) [Salmeterol], the SI (ratio CC50 / IC50) came out at 2.73.
Same read-out and setting: the value for `CC1(C)S[C@@H]2[C@H](NC(=O)Cc3ccccc3)C(=O)N2[C@H]1C(=O)O.CC1(C)S[C@@H]2[C@H](NC(=O)Cc3ccccc3)C(=O)N2[C@H]1C(=O)O.c1ccc(CNCCNCc2ccccc2)cc1` [Benzathine penicillin] was 46.15.
For `Cc1onc(-c2c(F)cccc2Cl)c1C(=O)N[C@@H]1C(=O)N2[C@@H]1SC(C)(C)[C@@H]2C(=O)O` [Flucloxacillin], the SI (ratio CC50 / IC50) amounted to 6.12.
On the same count and under the same terms, the value for `Cc1ccc(-c2cc(C(F)(F)F)nn2-c2ccc(S(N)(=O)=O)cc2)cc1` [Celecoxib] was 10.78.
